Reference: the supplement of paper PMC8773631
± gives the uncertainty stated by the source. The list shows a part of the results, in another mix than the full data.

The compounds below were run on NCC-MFS5-C1 (assay: cell viability relative to DMSO control; higher = less growth inhibition). Conditions: 10 µM; treatment time: 3 days.
Method: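 NCC-MFS5-C1 myxofibrosarcoma cells (1x10^4 per well, 384-well) were treated on day 2 with 10 µM of each drug. On day 5, viability was read by CCK-8 absorbance at 450 nm and normalised to the DMSO control (%), n = 2.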

| SMILES | cell viability [%] |
| --- | --- |
| [As+3].[As+3].[O-2].[O-2].[O-2] [Arsenic(III) oxide] | 106 ± 13 |
